Drawing on PubChem BioAssay AID588519 (ICCB-Longwood Screening Facility, Harvard Medical School, 2011), this text covers % elongation for 26 compounds.

The structures appear in SMILES notation. Where “and” joins values, the source holds several entries; their conditions need not be identical. Identical values can stand only once. Only a part is listed here, and it is no random draw. Calls of active or inactive are those of the source. Cut-off read from the data, not from the text of the source: active = % elongation below about 90%; inactive = the rest, inconclusive results apart.

The assay has as its target Genome polyprotein (Poliovirus type 1 (strain Mahoney)) (UniProt P03300). Description: inhibitors of poliovirus polymerase RNA elongation – biochemical, fluorescence polarization, total intensity, primary screen (AID 588519). The conditions noted are these: active compounds read low, compound at 16.7 µg/mL. A general note: Polarisation of emitted light reports the rotation of a fluorescent probe.
For `Cc1cc(NC2=NC3C(C(=O)N(C)C(=O)N3C)N2C)n(-c2ccccc2)n1` (stereo unspecified), the % elongation is inactive: 103%.

For `O=P1(Nc2nncs2)C=C(c2ccccc2)SC(c2ccccc2)=C1`, the % elongation is inactive: 91%. The same measure for `O=P1(Nc2nc3ccc(Cl)cc3s2)COc2ccccc2O1` (stereo unspecified): inactive: 99%. Turning to `O=C(OCCN1CCN(CCOCc2ccccc2)CC1)C(O)(c1ccccc1)c1ccccc1`, the % elongation is inactive: 97%. As to `O=C(OCC1CN(Cc2ccccc2)CCO1)C(O)(c1ccccc1)c1ccccc1` (stereo unspecified), the % elongation was inactive: 106%. Under `CC1CCC(C(C)C)C(OP(=O)(Nc2nccs2)c2ccccc2)C1` (stereo unspecified) stands inactive: 103%; under `COc1cc2c(cc1NP(C)(=O)Oc1ccccc1)oc1ccccc12` (stereo unspecified), inactive: 104%; under `COC(=O)c1cc2c(s1)N=C(c1ccccc1)N(C)P2(=O)N1CCOCC1` (stereo unspecified), inactive: 102%. The same measure for `Nc1nonc1OCc1nonc1COc1nonc1N`: inactive: 103%. Under `CC(=O)OC1(C#N)CN2CCC1CC2` (stereo unspecified) stands inactive: 96%; under `CC(=O)OC1CN2CCC1C(c1ccccc1)C2` (stereo unspecified), inactive: 108%. In the case of `O=P(Nc1nccs1)(c1ccccc1)c1ccccc1`, the % elongation was inactive: 103%. Under `C/C1=C2N=C(/C=C3N=C(/C(C)=C4\[N-][C@@](C)([C@@H]5N=C1[C@](C)(CCC(=O)NC[C@@H](C)OP(=O)([O-])O[C@H]1[C@@H](O)[C@@H](n6cnc7cc(C)c(C)cc76)O[C@@H]1CO)[C@H]5CC(N)=O)[C@@](C)(CC(N)=O)[C@@H]4CCC(N)=O)[C@@](C)(CC(N)=O)[C@@H]\3CCC(N)=O)C(C)(C)[C@@H]/2CCC(N)=O.[C-]#N.[Co+3]` stands active: 55%.

Turning to `Cc1ccccc1NP(C)(=O)Nc1ccccc1C`, the % elongation is inactive: 102%. As for `CCc1ccc(OP(C)(=O)Nc2cccnc2)cc1` (stereo unspecified), the % elongation was inactive: 109%. The same measure for `OCCSCCO`: inactive: 99%; for `CP(=O)(Nc1ccc(Cl)cc1)Oc1ccc(F)cc1` (stereo unspecified): inactive: 102%; for `O=C(COC(=O)C(O)(c1ccccc1)c1ccccc1)N1CCCCC1`: inactive: 98%. In the case of `CCOP(=Nc1nc2ccccc2n2nnnc12)(OCC)OCC`, the % elongation is inactive: 101%. The same measure for `CN(C(=O)Cc1ccc(Cl)c(Cl)c1)[C@H]1CCCC[C@@H]1N1CCCC1`: inactive: 102% and inactive: 104%; for `CCOP(OCC)N1CCOCC1`: inactive: 100%; for `CP(=O)(Nc1ccccn1)Oc1ccccc1` (stereo unspecified): inactive: 102%. With `O=P1(Nc2nccs2)CC=CC1`, the % elongation is inactive: 100%. With `CN(C)P1(=O)Nc2ccccc2S1` (stereo unspecified), the % elongation is inactive: 110%. Regarding `O=C(OC1CN2CCC1CC2)C12CC3CC(CC(C3)C1)C2` (stereo unspecified), the % elongation is inactive: 102%. Turning to `CC1=Nc2ccc(C(F)(F)F)cc2C1(C)C`, the % elongation is inactive: 101%.
